The results in this text go back to the supplement of paper PMC12637763.

Changes are numbered by the printed parent chain. The list shows a part of the results. Env chains of viruses from a treatment-interruption trial, translated from the printed DNA. IC50 / IC80 of two broadly neutralizing antibodies; lower = more sensitive virus; >50 µg/ml means not reached and <0.001 µg/ml is below the lowest dose. No active / inactive call. Where only a bound is given, the exact number is not on record here.

The target of test [1] is antibody 10-1074. Kind of test: neutralization IC50; higher = virus less sensitive to the antibody. How it is done: (§1)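 Pseudovirus bearing the Env chain mixed with antibody, from 50 µg/ml in fivefold dilutions, on TZM-bl reporter cells, in duplicate.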
In test [2] the target is antibody 3BNC117. The test is described as above. Here is the method:
as §1

Test [3] addresses antibody 10-1074. Kind of test: neutralization IC80; higher = virus less sensitive to the antibody. How it is done: as §1
The target of test [4] is antibody 3BNC117. The description is as above. How it is done:
as §1

B1: HIV-1 Env, rebound clone, placebo arm (protein)
chain: MRVKGIMRNYQHLWRWGIMLLGILMICNATEKLWVTVYYGVPVWKEATTTLFCASDAKAYDTEAHNVWATHACVPTDPDPQEVVLENVTENFNAWKNDMVEQMHEDIISLWDQSLKPCVKLTPLCVTLECTDNVNCTGTNCTGVKDTNDTNNANLIMEKGEMKNCSFNITTNIRDKVDRQYALFYKLDIVQIEDNNTNTYRLISCNTSVITQACPKVSFEPIPIHYCAPAGFAILKCKDKGFSGKGTCKNVSTVQCTHGIRPVVSTQLLLNGSLAEKEVVIRSNNLTNNAETIIVQLSKTIQINCTRPNNNTRKGIHIGPGRAFYATGEIIGDIRQAHCNISGKDWNEALKWIAGKLKEKFNKTIVFRPPIRGGDPEIVMHTFNCGGEFFYCNTTKLFNSTHNDTHDTAINNTTITLPCKIKQIINMWQEVGKAMYAPPIRGNISCSSNITGLLLIRDGGNTSTNETFRPGGGNMKDNWRSELYKYKVVKIEPLGVAPTKAKRRVVQREKRAMGLGALFLGFLGAAGSTMGAASVTLTVQARQLLSGIVQQQNNLLRAIEAQQHMLQLTVWGIKQLQARVLAVERYLKDQQLLGIWGCSGKLICTTSVPWNTSWSNKSYHQIWENMTWMQWEKEIDNYTGIIYTLIEESQTQQEMNEKELLELDKWAGLWNWFSITNWLWYIRIFIMIVGGLIGLRIVFAVLSIVKRVRQGYSPLSFQTLFPTQRGPDRPGEIEEEGGEQDRGRSIRLVDGFLALFWDDLRSLCLFSYHRLRDLLLIVARIVELLGRRGWEILKYWWSLLQYWSQELKNSAISLLNTTAIIVGEGTDRVIETAQRVVRAFLHIPRRIRQGFERALQ
On to B1, for which the “neutralization IC50” value in test [1] amounted to 0.13 µg/mL; in test [2], 0.088 µg/mL. Further, the “neutralization IC80” value came to 0.448 µg/mL in test [3] and 0.318 µg/mL in test [4].

B2: HIV-1 Env, rebound clone, placebo arm (protein)
chain: B1 chain with I23M, S448L, G691S
B2: the “neutralization IC50” value in test [1] amounted to 0.093 µg/mL; in test [2] it was 0.091 µg/mL. The “neutralization IC80” value in test [3] was found to be 0.307 µg/mL; in test [4] it was 0.416 µg/mL.

B3: HIV-1 Env, rebound clone, antibody arm (protein)
chain: MKVKVTMRNYQNLWRGGTLLLGMLMICSGAEQLWVTVYYGVPVWKEANTTLFCASDAKAYDTEVHNVWATHACVPTDPSPQEVVLENVTEDFNIWKNNMVEQMHEDIISLWDQSLKPCVKLTPLCVTLNCSNVNNQTGTNNNSSHGKDVEGEMKNCSFNVTTNIRDKIKREYALLYKLDIVPIDNDNTSYTLTSCNTSVITQACPKVSFEPIPIHYCAPAGFAILKCNNKTFNGKGPCTNVSTVQCTHGIRPVVSTQLLLNGSLAEDVVLRSENFTNNAKTIIVQLKEPVIINCTRPNNNTRKSIPMGPGRAWYTTGEIIGDIRQAHCNINKAQWNKTLQQVVTKLREQFGNKTIVFNQPTGGDPEIVMHSFNCGGEFFYCNTSKLFNSTWNNSTQGFNSTGESNTTITIQCTIKQIINMWQQVGKAMYAPPIAGQIKCSSNITGLLLTRDGGGNKTENETFRPAGGDMRDNWRSELYKYKVVQIKPLGIAPTKAKRRVVQREKRAVGIGALFLGFLGAAGSTMGAAAVTLTVQARQLLSGIVQQQNNLLRAIEAQQHMLQLTVWGIKQLQARVLAVERYLRDQQLLGIWGCSGKLICTTTVPWNNSWSNKSLDDIWGNMTWMEWEKEIDNYTYTIYKLIEESQNQQEKNEQELLELDKWANLWNWFDITNWLWYIKIFIIIVGGLIGLRIVFAVLSIVNRVRQGYSPLSLQTLLPAPRGPDRPGEIEEEGGERDKDTSVRLVNGFLAIIWDDLRSLCLFSYRHLRDLLLIVTRIVGLLGHRGWEVLRYWWNLLQYWIQELKNSAVSLLNVTAIAVAEGTDRVIEIAQRACRAVLHIPRRIRQGLERGLL
As for B3, the “neutralization IC50” value in test [1] was more than 50 µg/mL; in test [2] it was 0.035 µg/mL. Also, the “neutralization IC80” value in test [3] is more than 50 µg/mL; in test [4] it was 0.111 µg/mL.
